Sequence variants of PSTVd loop 6 after infection

Reference: Wu et al. 2024, doi:10.1371/journal.ppat.1012142.

The pool varies loop 6 of the PSTVd intermediate strain in the pattern UNNNCGNNNG; wild type is UGACCGCGAG (upper and lower strand joined, each 5' to 3', the first 5 letters being the upper strand, closing pairs included).

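Three N. benthamiana plants were inoculated with the whole mutant pool. Samples came from the inoculated region at 5 days, the leaf margin at 10 and upper systemic leaves at 12.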

Numbers give reads per thousand; 0 = not seen among the reads, higher = more abundant. Each site shows the three plants. "Pool" is the share in the plasmid pool used as inoculum, on the same scale. The inoculated region was read from the minus strand, the other sites from the plus strand. Wild type was 20.7 per thousand in the pool and the most common sequence in every sample (inoculated region 195, 198, 203; leaf margin 629, 591, 734; systemic leaves 942, 870, 868). The authors trace changes outside the varied positions to PCR and sequencing errors or to mutation in the plant; presence does not show that a variant is infectious alone. With 36,220-57,551 reads a sample, very low values are single reads.

sequence	pool	inoculated region	leaf margin	systemic leaves
UAAACGGCGG	0.118	0.156 0.144 0.129	0.0276 0 0	0 0 0
UAAACGGCUG	0.196	0.730 0.575 0.443	0 0.126 0.139	0 0 0
UAAACGGGAG	0.144	0.695 4.49 6.14	1.38 1.11 0.928	0.162 0.566 3.20
UAAACGGGCG	0.170	0.573 4.31 5.74	1.46 1.21 0.812	0.144 0.707 0.492
UAAACGGGGG	0.0915	0.695 0.665 0.443	0.110 0.0252 0.0464	0 0 0
UAAACGGGUG	0.131	0.539 0.665 0.553	0.110 0.0504 0.0928	0 0.0202 0.0205
UAAACGGUAG	0.209	0.626 0.719 0.645	0.138 0.101 0	0 0 0
UAAACGGUCG	0.261	0.730 0.736 0.535	0.0828 0.0252 0.0464	0 0.0202 0.0205
UAAACGGUGG	0.235	0.122 0.0359 0.0553	0.0276 0 0	0 0 0
UAAACGGUUG	0.118	0.712 0.880 0.424	0 0.0504 0.0696	0 0 0
UAAACGUAAG	0.105	0.521 0.790 0.609	0.0552 0.126 0.0928	0 0 0.0410
UAAACGUACG	0.248	0.660 0.665 0.443	0.0828 0.101 0.0232	0.0180 0.0202 0
UAAACGUAGG	0.144	0.122 0.0719 0.129	0 0 0	0 0 0
UAAACGUAUG	0.196	0.139 0.0898 0.0553	0.387 0 0.0464	0 0 0
UAAACGUCAG	0.196	0.678 0.521 0.461	0.0552 0.0757 0.0928	0 0.0404 0.0410
UAAACGUCCG	0.157	0.591 0.754 0.572	0.0828 0.0504 0.0928	0 0 0
UAAACGUCGG	0.157	0.122 0.108 0.0738	0 0 0	0 0 0
UAAACGUCUG	0.288	0.122 0.126 0.0184	0 0 0	0 0 0
UAAACGUGAG	0.248	0.747 0.539 0.535	0.110 0.151 0.116	0 0 0
UAAACGUGCG	0.144	0.643 0.593 0.443	0.0552 0.0757 0.0696	0.0180 0.0404 0
UAAACGUGGG	0.209	0.104 0.0180 0.0738	0 0 0.0232	0 0 0
UAAACGUGUG	0.170	0.712 0.665 0.811	0.110 0 0	0.0359 0.0202 0.0410
UAAACGUUAG	0.131	0.678 0.593 0.184	0.0828 0.126 0.162	0 0.0202 0.0205
UAAACGUUCG	0.170	0.678 0.575 0.387	0.138 0.0504 0.116	0.0180 0.0404 0.0410
UAAACGUUGG	0.235	0.122 0.108 0.166	0 0 0	0 0 0
UAAACGUUUG	0.275	0.0869 0.0898 0.0922	0 0 0	0 0 0
UAAACUGCGG	0.0131	0 0 0	0 0 0	0 0 0
UAACCGAAAG	0.157	0.782 0.665 0.553	0.110 0.151 0.0696	0 0.121 0
UAACCGAACG	0.105	0.660 0.736 0.369	0.110 0.126 0.0464	0 0 0
UAACCGAAGG	0.0654	0.0695 0.0180 0.166	0 0 0	0 0 0
UAACCGAAUG	0.275	0.0869 0.126 0.184	0.0276 0 0	0 0 0
UAACCGACAG	0.288	0.643 0.754 0.461	0.0828 0.101 0.0464	0.0180 0.121 0.0205
UAACCGACCG	0.196	0.104 0.108 0.129	0.0276 0 0.0232	0 0 0
UAACCGACGG	0.353	0 0.0719 0.111	0 0 0	0 0 0
UAACCGACUG	0.314	0.0521 0.0898 0.148	0 0 0	0 0 0
UAACCGAGAG	0.183	0.938 0.647 0.572	0.0828 0.126 0.0928	0 0 0
UAACCGAGCG	0.105	0.539 0.790 0.424	0.0828 0.177 0.0464	0 0 0
UAACCGAGGG	0.157	0.122 0.108 0.203	0 0 0	0 0 0
UAACCGAGUG	0.118	0.139 0.0719 0.148	0 0 0	0 0 0
UAACCGAUAG	0.301	0.678 0.736 0.627	0.110 0.202 0.209	0 0 0.0410
UAACCGAUCG	0.170	0.0869 0.0539 0.0922	0 0 0	0 0 0
UAACCGAUGG	0.131	0.0521 0.144 0.111	0 0 0.0232	0 0 0
UAACCGAUUG	0.235	0.104 0.0539 0.166	0.0276 0 0.0232	0 0 0
UAACCGCAAG	0.105	0.747 4.56 6.03	0 1.24 1.07	0.270 0.566 0.574
UAACCGCACG	0.183	0.573 0.521 0.959	0.110 0.0504 0.139	0 0.101 0.0410
UAACCGCAGG	0.157	0.712 0.611 0.664	0.0552 0.0757 0.0696	0 0 0

The last 6 entries again:

{"sequence": "UAACCGAUCG", "pool": "0.170", "inoculated region": "0.0869 0.0539 0.0922", "leaf margin": "0 0 0", "systemic leaves": "0 0 0"}
{"sequence": "UAACCGAUGG", "pool": "0.131", "inoculated region": "0.0521 0.144 0.111", "leaf margin": "0 0 0.0232", "systemic leaves": "0 0 0"}
{"sequence": "UAACCGAUUG", "pool": "0.235", "inoculated region": "0.104 0.0539 0.166", "leaf margin": "0.0276 0 0.0232", "systemic leaves": "0 0 0"}
{"sequence": "UAACCGCAAG", "pool": "0.105", "inoculated region": "0.747 4.56 6.03", "leaf margin": "0 1.24 1.07", "systemic leaves": "0.270 0.566 0.574"}
{"sequence": "UAACCGCACG", "pool": "0.183", "inoculated region": "0.573 0.521 0.959", "leaf margin": "0.110 0.0504 0.139", "systemic leaves": "0 0.101 0.0410"}
{"sequence": "UAACCGCAGG", "pool": "0.157", "inoculated region": "0.712 0.611 0.664", "leaf margin": "0.0552 0.0757 0.0696", "systemic leaves": "0 0 0"}